Compound potency records, mixed from different reports. Data source: NIAID ChemDB in PubChem.

Common to all: whole-cell or culture tests; agent: Cryptosporidium parvum; read-out: inhibition

An empty or dashed field is not shown.

SMILES | tested at | cells | method | strain or isolate | result
O=C1/C(=C/c2ccc(O)cc2)Oc2cc(O)ccc21 | 10 µM | - | - | - | 3%
CC(=O)Oc1ccccc1C(=O)Nc1ncc([N+](=O)[O-])s1 | 1 µg/mL | MDBK | cell count | - | 44%
CCn1nc(C)c2c1C(=O)c1ccccc1C2=O | 50 µM | - | - | - | <10%
O=[N+]([O-])c1ccc(CSc2c3ccccc3nc3cc(Cl)ccc23)cc1 | 50 µg/mL | - | - | - | 32%
COc1cc(/C=C/C=C\c2ccccc2OC)oc(=O)c1 | 10 µM | - | - | - | 6%
CCCCCCSc1c2ccccc2nc2ccccc12 | 50 µg/mL | - | - | - | 37%
COc1ccc(/C=C2\Oc3cc(O)cc(O)c3C2=O)cc1O | 50 µM | - | - | - | 95%
COc1c2c(c(O)c3ccccc13)C(=O)c1cnn(C)c1C2=O | 100 µM | - | - | - | 93%
O=C(c1ccccc1)c1oc2cc(O)cc(Cc3ccccc3)c2c1O | 25 µM | - | - | - | 4%
CCSc1c2ccccc2nc2ccccc12 | 10 µg/mL | - | - | - | 28%
CC[C@@H](C(=O)[C@@H](C)[C@@H](O)[C@H](C)CCc1ccc(C)c(O)c1C(=O)O)[C@H]1O[C@](CC)([C@H]2CC[C@](O)(CC)[C@H](C)O2)C[C@@H]1C | 2 µg/mL | A549 | - | - | 70%
CC[C@@H](C(=O)[C@@H](C)[C@@H](O)[C@H](C)CCc1ccc(C)c(O)c1C(=O)O)[C@H]1O[C@](CC)([C@H]2CC[C@](O)(CC)[C@H](C)O2)C[C@@H]1C | 2 µg/mL | MDCK | luminescence | IOWA | 80.2%
COc1cccc2c1C(=O)c1cnn(C)c1C2=O | 50 µM | - | - | - | <10%
CC(=O)Oc1ccccc1C(=O)Nc1ncc([N+](=O)[O-])s1 | 8 µg/mL | A549 | - | - | 55.4%
O=C1c2cccc(Cl)c2C(=O)c2cn[nH]c21 | 50 µM | - | - | - | 99%
O=[N+]([O-])c1ccc(Sc2c3ccccc3nc3cc(Cl)ccc23)cc1 | 50 µg/mL | - | - | - | 37%
CCn1nc(Cc2ccccc2)c2c1C(=O)c1c(OC(C)=O)c(C)c(C)c(OC(C)=O)c1C2=O | 25 µM | - | - | - | <10%
CCSc1c2ccccc2nc2cc(N)ccc12 | 1 µg/mL | - | - | - | 60%
O=C1c2ccccc2C(=O)c2[nH]ncc21 | 10 µM | - | - | - | <10%
COc1cc(/C=C/C=C\c2ccc3c(c2)OCO3)oc(=O)c1 | 25 µM | - | - | - | 6%
Cn1ncc2c1C(=O)c1cccc(O)c1C2=O | 25 µM | - | - | - | 100%
COc1cc(/C=C2\Oc3cc(O)cc(O)c3C2=O)ccc1O | 10 µM | - | - | - | 16%
COc1cc(C)cc2c1C(=O)c1cnn(C)c1C2=O | 10 µM | - | - | - | <10%
COc1ccc(/C=C\C=C\c2cc(OC)cc(=O)o2)cc1 | 10 µM | - | - | - | 0%

A second listing of 2 rows from above:

SMILES | tested at | cells | method | strain or isolate | result
COc1ccc(/C=C\C=C\c2cc(OC)cc(=O)o2)cc1 | 10 µM | - | - | - | 0%
O=[N+]([O-])c1ccc(CSc2c3ccccc3nc3cc(Cl)ccc23)cc1 | 50 µg/mL | - | - | - | 32%

Neighbouring rows are from separate reports. Inhibition is in % at the dose shown (toxicity tests: loss of growth or viability).